Assay [1] has as its target T1, Nav1.7 (Homo sapiens, UniProt Q15858, W1161R). Briefly: IC50 (Nav1.7) µM. The settings on record: read-out: IC50 (Nav1.7) µM.
For assay [2], the target named is T2, Nav1.2 (Homo sapiens, UniProt Q99250). The assay is described as follows: IC50 (Nav1.2) µM. The settings on record: read-out: IC50 (Nav1.2) µM.
In assay [3] the target is T1, Nav1.7. The assay is described as follows: IC50 (Nav1.7) µM. The settings on record: read-out: IC50 (Nav1.7) µM. This is another data set of the same source.
Assay [4] addresses T2, Nav1.2. Briefly: IC50 (Nav1.2) µM. The settings on record: read-out: IC50 (Nav1.2) µM. This is another data set of the same source.

Chains of the proteins cited; added tags and fusions are not shown.
UniProt Q15858, whole entry W1161R, looked up: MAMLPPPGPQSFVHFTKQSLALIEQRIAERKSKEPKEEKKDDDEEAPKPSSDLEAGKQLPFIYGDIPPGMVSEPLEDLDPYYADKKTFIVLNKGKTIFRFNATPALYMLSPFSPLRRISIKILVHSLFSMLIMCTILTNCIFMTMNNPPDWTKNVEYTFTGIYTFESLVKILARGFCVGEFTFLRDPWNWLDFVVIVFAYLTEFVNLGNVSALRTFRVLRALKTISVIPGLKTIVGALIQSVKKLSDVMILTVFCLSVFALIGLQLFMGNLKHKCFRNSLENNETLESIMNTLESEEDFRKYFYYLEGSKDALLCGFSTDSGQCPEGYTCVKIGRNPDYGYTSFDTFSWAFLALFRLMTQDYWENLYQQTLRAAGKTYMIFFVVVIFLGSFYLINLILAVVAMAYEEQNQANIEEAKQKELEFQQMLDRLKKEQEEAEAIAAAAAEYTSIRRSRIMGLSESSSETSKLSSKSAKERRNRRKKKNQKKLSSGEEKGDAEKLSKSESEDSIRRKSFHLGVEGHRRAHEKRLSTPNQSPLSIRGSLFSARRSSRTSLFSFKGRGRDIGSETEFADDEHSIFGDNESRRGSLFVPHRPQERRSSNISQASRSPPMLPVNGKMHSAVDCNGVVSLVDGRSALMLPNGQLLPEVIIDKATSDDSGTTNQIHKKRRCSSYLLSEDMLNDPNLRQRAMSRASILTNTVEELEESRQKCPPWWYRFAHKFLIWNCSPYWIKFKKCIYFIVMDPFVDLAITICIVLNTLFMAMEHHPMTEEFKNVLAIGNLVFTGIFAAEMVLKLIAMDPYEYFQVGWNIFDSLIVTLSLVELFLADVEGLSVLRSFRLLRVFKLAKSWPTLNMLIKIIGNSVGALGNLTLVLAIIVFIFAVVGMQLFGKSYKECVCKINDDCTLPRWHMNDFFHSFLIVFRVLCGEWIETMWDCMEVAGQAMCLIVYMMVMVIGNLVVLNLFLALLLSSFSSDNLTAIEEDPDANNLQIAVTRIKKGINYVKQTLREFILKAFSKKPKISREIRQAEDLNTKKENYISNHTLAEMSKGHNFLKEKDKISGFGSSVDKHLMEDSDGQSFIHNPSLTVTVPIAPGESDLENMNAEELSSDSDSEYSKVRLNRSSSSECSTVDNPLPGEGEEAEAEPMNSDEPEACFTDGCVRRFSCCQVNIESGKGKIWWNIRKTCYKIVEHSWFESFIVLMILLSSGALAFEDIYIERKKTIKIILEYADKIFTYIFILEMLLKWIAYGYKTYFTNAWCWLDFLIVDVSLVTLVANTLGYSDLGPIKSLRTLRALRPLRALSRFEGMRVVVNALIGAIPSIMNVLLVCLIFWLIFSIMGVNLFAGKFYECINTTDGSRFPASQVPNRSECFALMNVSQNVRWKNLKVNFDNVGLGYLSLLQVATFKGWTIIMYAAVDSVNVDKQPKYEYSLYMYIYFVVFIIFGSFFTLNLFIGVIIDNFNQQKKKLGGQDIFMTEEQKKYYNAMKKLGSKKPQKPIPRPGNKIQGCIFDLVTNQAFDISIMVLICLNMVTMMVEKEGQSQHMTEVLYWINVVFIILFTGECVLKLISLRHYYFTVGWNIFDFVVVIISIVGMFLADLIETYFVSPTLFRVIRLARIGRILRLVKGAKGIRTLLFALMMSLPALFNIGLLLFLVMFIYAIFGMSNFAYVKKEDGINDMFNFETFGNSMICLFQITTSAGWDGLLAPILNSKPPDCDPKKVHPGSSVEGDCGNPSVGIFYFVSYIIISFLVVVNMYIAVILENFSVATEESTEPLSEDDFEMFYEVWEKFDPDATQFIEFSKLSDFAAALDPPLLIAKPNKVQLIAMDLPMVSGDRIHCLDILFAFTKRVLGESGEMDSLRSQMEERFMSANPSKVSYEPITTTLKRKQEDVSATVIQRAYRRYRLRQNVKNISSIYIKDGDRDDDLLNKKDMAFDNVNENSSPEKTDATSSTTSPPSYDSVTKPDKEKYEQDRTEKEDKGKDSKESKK
UniProt Q99250, whole entry, looked up: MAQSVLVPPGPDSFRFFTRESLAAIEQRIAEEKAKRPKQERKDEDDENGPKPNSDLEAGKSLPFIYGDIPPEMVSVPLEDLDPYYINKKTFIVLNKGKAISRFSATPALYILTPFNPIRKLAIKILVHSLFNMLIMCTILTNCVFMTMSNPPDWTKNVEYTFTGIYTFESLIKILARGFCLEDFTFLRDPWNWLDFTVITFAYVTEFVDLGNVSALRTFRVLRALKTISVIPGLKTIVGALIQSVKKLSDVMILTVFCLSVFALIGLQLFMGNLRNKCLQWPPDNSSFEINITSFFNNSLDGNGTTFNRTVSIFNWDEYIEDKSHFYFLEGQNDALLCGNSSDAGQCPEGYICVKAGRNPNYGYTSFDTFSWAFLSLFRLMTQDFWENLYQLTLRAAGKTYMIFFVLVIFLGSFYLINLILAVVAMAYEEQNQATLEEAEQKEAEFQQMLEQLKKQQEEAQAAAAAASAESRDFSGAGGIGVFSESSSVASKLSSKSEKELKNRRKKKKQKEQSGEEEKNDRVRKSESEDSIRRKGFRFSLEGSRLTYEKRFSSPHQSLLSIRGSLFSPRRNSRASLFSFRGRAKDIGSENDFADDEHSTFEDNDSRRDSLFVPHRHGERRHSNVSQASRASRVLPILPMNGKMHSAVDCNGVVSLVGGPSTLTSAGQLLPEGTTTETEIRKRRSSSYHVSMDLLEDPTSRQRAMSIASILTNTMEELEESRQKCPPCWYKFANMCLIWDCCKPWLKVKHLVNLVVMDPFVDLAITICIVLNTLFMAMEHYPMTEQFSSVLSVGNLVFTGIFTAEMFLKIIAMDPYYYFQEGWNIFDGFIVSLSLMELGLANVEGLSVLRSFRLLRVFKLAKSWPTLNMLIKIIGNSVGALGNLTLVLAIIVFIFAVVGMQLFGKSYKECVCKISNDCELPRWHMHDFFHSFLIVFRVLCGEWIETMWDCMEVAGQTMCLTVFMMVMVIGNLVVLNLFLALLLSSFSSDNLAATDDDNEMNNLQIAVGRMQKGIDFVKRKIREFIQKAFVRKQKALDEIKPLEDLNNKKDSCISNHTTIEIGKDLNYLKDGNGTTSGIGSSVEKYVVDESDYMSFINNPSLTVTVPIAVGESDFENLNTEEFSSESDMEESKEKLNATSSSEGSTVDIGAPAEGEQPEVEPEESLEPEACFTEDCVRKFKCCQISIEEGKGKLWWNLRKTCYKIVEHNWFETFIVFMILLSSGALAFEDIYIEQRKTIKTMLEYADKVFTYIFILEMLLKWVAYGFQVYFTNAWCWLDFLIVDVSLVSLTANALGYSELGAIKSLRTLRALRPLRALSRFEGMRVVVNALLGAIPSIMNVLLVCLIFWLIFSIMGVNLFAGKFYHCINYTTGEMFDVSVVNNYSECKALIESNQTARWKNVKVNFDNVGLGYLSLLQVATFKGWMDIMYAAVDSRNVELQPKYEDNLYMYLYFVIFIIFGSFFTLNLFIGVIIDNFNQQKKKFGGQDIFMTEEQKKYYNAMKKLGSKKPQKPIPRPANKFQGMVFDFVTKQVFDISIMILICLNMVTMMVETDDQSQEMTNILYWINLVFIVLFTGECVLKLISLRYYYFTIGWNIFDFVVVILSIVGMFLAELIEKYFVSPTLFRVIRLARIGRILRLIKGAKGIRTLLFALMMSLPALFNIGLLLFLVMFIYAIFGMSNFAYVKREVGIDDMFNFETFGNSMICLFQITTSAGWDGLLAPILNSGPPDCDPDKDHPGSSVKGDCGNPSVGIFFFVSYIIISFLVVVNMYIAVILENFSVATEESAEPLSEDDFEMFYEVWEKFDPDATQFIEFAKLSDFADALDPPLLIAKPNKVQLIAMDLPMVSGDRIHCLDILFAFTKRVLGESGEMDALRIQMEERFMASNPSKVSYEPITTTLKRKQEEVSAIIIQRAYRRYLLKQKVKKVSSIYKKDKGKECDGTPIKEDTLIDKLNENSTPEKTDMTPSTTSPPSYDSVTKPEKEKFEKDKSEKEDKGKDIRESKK

Read-outs that look alike come from different tables or passages of the source.

On to `CC[C@H](C)[C@@H]1NC(=O)[C@H](CCCNC(=N)N)NC(=O)[C@H](CC(C)C)NC(=O)[C@@H](NC(=O)[C@H](CC(N)=O)NC(=O)[C@@H]2CCCN2C(=O)CN)CSSC[C@@H]2NC(=O)[C@@H]3CSSC[C@@H](C(=O)N[C@@H](CCCCN)C(=O)N[C@@H](Cc4ccc(O)cc4)C(=O)N[C@@H](CO)C(=O)N[C@H](C(=O)N[C@H](C(=O)N[C@@H](CCCCN)C(=O)O)[C@@H](C)CC)[C@@H](C)CC)NC(=O)[C@H](Cc4c[nH]c5ccccc45)NC(=O)[C@H](CCCNC(=N)N)NC(=O)[C@H]([C@@H](C)O)NC(=O)[C@H](CCCCN)NC(=O)[C@H](CCCCN)NC(=O)[C@H](CO)NC(=O)[C@H](CSSC[C@H](NC(=O)[C@H](C)NC(=O)[C@H](CCCCN)NC(=O)[C@H](Cc4ccccc4)NC1=O)C(=O)N[C@@H](CC(N)=O)C(=O)N1CCC[C@H]1C(=O)N[C@@H](CO)C(=O)N[C@@H](CC(N)=O)C(=O)N[C@@H](CC(=O)O)C(=O)N[C@@H](CCC(N)=O)C(=O)N3)NC(=O)[C@H](C(C)C)NC(=O)[C@H](CC(C)C)NC(=O)[C@H](CCCCN)NC(=O)[C@H](CO)NC(=O)[C@H](CO)NC(=O)[C@H](CCCCN)NC2=O`, for which the IC50 in assay [1] worked out at 0.04 µM; in assay [2], 0.87 µM; in assay [3] it was 0.02 µM; in assay [4] it was 0.32 µM.
On to `CC[C@H](C)[C@H](NC(=O)[C@H](CCC(N)=O)NC(=O)[C@H](Cc1c[nH]c2ccccc12)NC(=O)[C@H](CCCCN)NC(=O)[C@@H]1CSSC[C@@H]2NC(=O)[C@H](CCC(N)=O)NC(=O)[C@H](CC(=O)O)NC(=O)[C@H](CC(N)=O)NC(=O)[C@H](CO)NC(=O)[C@@H]3CCCN3C(=O)[C@H](CC(N)=O)NC(=O)[C@@H]3CSSC[C@H](NC(=O)[C@H](C(C)C)NC(=O)[C@H](CC(C)C)NC(=O)[C@H](CCCCN)NC(=O)[C@H](CO)NC(=O)[C@H](CO)NC(=O)[C@H](CCCCN)NC(=O)[C@H](CSSC[C@H](NC(=O)[C@H](CCC(=O)O)NC(=O)[C@@H]4CCCN4C(=O)CN)C(=O)N[C@@H](CC(C)C)C(=O)N[C@@H](CCC(=O)O)C(=O)N[C@@H]([C@@H](C)CC)C(=O)N[C@@H](Cc4ccccc4)C(=O)N[C@@H](CCCCN)C(=O)N[C@@H](C)C(=O)N3)NC2=O)C(=O)N[C@@H](CO)C(=O)N[C@@H](CCCNC(=N)N)C(=O)N[C@@H](CCCCN)C(=O)N[C@@H]([C@@H](C)O)C(=O)N[C@@H](CCCNC(=N)N)C(=O)N[C@@H](Cc2c[nH]c3ccccc23)C(=O)N1)C(=O)NCC(=O)N[C@@H](CCCCN)C(=O)O`, for which the IC50 in assay [1] worked out at 0.01 µM; in assay [2] it was 0.01 µM; in assay [3], 0.02 µM; in assay [4] it was 0.26 µM.
With `CC[C@H](C)[C@H](NC(=O)[C@H](CCC(N)=O)NC(=O)[C@H](Cc1ccc(O)cc1)NC(=O)[C@H](CCCCN)NC(=O)[C@@H]1CSSC[C@@H]2NC(=O)[C@H](CCC(N)=O)NC(=O)[C@H](CC(=O)O)NC(=O)[C@H](CC(N)=O)NC(=O)[C@H](CO)NC(=O)[C@@H]3CCCN3C(=O)[C@H](CC(N)=O)NC(=O)[C@@H]3CSSC[C@H](NC(=O)[C@H](C(C)C)NC(=O)[C@H](CC(C)C)NC(=O)[C@H](CCCCN)NC(=O)[C@H](CO)NC(=O)[C@H](CO)NC(=O)[C@H](CCCCN)NC(=O)[C@H](CSSC[C@H](NC(=O)[C@H](CCC(=O)O)NC(=O)[C@@H]4CCCN4C(=O)CN)C(=O)N[C@@H](CC(C)C)C(=O)N[C@@H](CCCNC(=N)N)C(=O)N[C@@H]([C@@H](C)CC)C(=O)N[C@@H](Cc4ccccc4)C(=O)N[C@@H](CCCCN)C(=O)N[C@@H](C)C(=O)N3)NC2=O)C(=O)N[C@@H](CO)C(=O)N[C@@H](CCCNC(=N)N)C(=O)N[C@@H](CCCCN)C(=O)N[C@@H]([C@@H](C)O)C(=O)N[C@@H](CCCNC(=N)N)C(=O)N[C@@H](Cc2c[nH]c3ccccc23)C(=O)N1)C(=O)NCC(=O)N[C@@H](CCCCN)C(=O)O`, the IC50 in assay [1] was 0.01 µM; in assay [2], 0.01 µM; in assay [3], 0.02 µM; in assay [4], 0.02 µM.
On to `CC[C@H](C)[C@H](NC(=O)[C@H](CO)NC(=O)[C@H](Cc1ccc(O)cc1)NC(=O)[C@H](CCCCN)NC(=O)[C@@H]1CSSC[C@@H]2NC(=O)[C@H](CCC(N)=O)NC(=O)[C@H](CC(=O)O)NC(=O)[C@H](CC(N)=O)NC(=O)[C@H](CO)NC(=O)[C@@H]3CCCN3C(=O)[C@H](CC(N)=O)NC(=O)[C@@H]3CSSC[C@H](NC(=O)[C@H](C(C)C)NC(=O)[C@H](CC(C)C)NC(=O)[C@H](CCCCN)NC(=O)[C@H](CO)NC(=O)[C@H](CO)NC(=O)[C@H](CCCCN)NC(=O)[C@H](CSSC[C@H](NC(=O)[C@H](CC(N)=O)NC(=O)[C@@H]4CCCN4C(=O)CN)C(=O)N[C@@H](CC(C)C)C(=O)N[C@@H](CCCNC(=N)N)C(=O)N[C@@H]([C@@H](C)CC)C(=O)N[C@@H](Cc4ccccc4)C(=O)N[C@@H](CCCCN)C(=O)N[C@@H](C)C(=O)N3)NC2=O)C(=O)N[C@@H](CO)C(=O)N[C@@H](CCCNC(=N)N)C(=O)N[C@@H](CCCCN)C(=O)N[C@@H]([C@@H](C)O)C(=O)N[C@@H](CCCNC(=N)N)C(=O)N[C@@H](Cc2c[nH]c3ccccc23)C(=O)N1)C(=O)NCC(=O)N[C@@H](CCCCN)C(=O)O`, for which the IC50 in assay [1] was determined as 0.01 µM; in assay [2] it was 0.03 µM; in assay [4], 0.02 µM.
As for `CC[C@H](C)[C@H](NC(=O)[C@H](CCC(N)=O)NC(=O)[C@H](Cc1ccc(O)cc1)NC(=O)[C@H](CCCCN)NC(=O)[C@@H]1CSSC[C@@H]2NC(=O)[C@H](CCC(N)=O)NC(=O)[C@H](CC(=O)O)NC(=O)[C@H](CC(N)=O)NC(=O)[C@H](CO)NC(=O)[C@@H]3CCCN3C(=O)[C@H](CC(N)=O)NC(=O)[C@@H]3CSSC[C@H](NC(=O)[C@H](C(C)C)NC(=O)[C@H](CC(C)C)NC(=O)[C@H](CCCCN)NC(=O)[C@H](CO)NC(=O)[C@H](CO)NC(=O)[C@H](C)NC(=O)[C@H](CSSC[C@H](NC(=O)[C@H](CCC(=O)O)NC(=O)[C@@H]4CCCN4C(=O)CN)C(=O)N[C@@H](CC(C)C)C(=O)N[C@@H](CCC(=O)O)C(=O)N[C@@H]([C@@H](C)CC)C(=O)N[C@@H](Cc4ccccc4)C(=O)N[C@@H](CCCCN)C(=O)N[C@@H](C)C(=O)N3)NC2=O)C(=O)N[C@@H](CO)C(=O)N[C@@H](CCCNC(=N)N)C(=O)N[C@@H](CCCCN)C(=O)N[C@@H]([C@@H](C)O)C(=O)N[C@@H](CCCNC(=N)N)C(=O)N[C@@H](Cc2c[nH]c3ccccc23)C(=O)N1)C(=O)NCC(=O)N[C@@H](CCCCN)C(=O)O`, the IC50 was found to be 0.05 µM in assay [1] and 0.52 µM in assay [2].
The like results for `CC[C@H](C)[C@H](NC(=O)[C@H](CCC(N)=O)NC(=O)[C@H](Cc1c[nH]c2ccccc12)NC(=O)[C@H](CCCCN)NC(=O)[C@@H]1CSSC[C@@H]2NC(=O)[C@H](CCC(N)=O)NC(=O)[C@H](CC(=O)O)NC(=O)[C@H](CC(N)=O)NC(=O)[C@H](CO)NC(=O)[C@@H]3CCCN3C(=O)[C@H](CC(N)=O)NC(=O)[C@@H]3CSSC[C@H](NC(=O)[C@H](C(C)C)NC(=O)[C@H](CC(C)C)NC(=O)[C@H](CCCCN)NC(=O)[C@H](CO)NC(=O)[C@H](CO)NC(=O)[C@H](CCCCN)NC(=O)[C@H](CSSC[C@H](NC(=O)[C@H](CCC(=O)O)NC(=O)[C@@H]4CCCN4C(=O)CN)C(=O)N[C@@H](CC(C)C)C(=O)N[C@@H](CCCNC(=N)N)C(=O)N[C@@H]([C@@H](C)CC)C(=O)N[C@@H](Cc4ccccc4)C(=O)N[C@@H](CCCCN)C(=O)N[C@@H](C)C(=O)N3)NC2=O)C(=O)N[C@@H](CO)C(=O)N[C@@H](CCCCN)C(=O)N[C@@H](CCCCN)C(=O)N[C@@H]([C@@H](C)O)C(=O)N[C@@H](CCCNC(=N)N)C(=O)N[C@@H](Cc2c[nH]c3ccccc23)C(=O)N1)C(=O)NCC(=O)N[C@@H](CCCCN)C(=O)O` were, in that order, 0.01 µM and 0.02 µM.
Consider `CC[C@H](C)[C@H](NC(=O)[C@H](CO)NC(=O)[C@H](Cc1ccc(O)cc1)NC(=O)[C@H](CCCCN)NC(=O)[C@@H]1CSSC[C@@H]2NC(=O)[C@H](CCC(N)=O)NC(=O)[C@H](CC(=O)O)NC(=O)[C@H](CC(N)=O)NC(=O)[C@H](CO)NC(=O)[C@@H]3CCCN3C(=O)[C@H](CC(N)=O)NC(=O)[C@@H]3CSSC[C@H](NC(=O)[C@H](C(C)C)NC(=O)[C@H](CC(C)C)NC(=O)[C@H](CCCCN)NC(=O)[C@H](CO)NC(=O)[C@H](CO)NC(=O)[C@H](CCCCN)NC(=O)[C@H](CSSC[C@H](NC(=O)[C@H](CCC(=O)O)NC(=O)[C@@H]4CCCN4C(=O)CN)C(=O)N[C@@H](CC(C)C)C(=O)N[C@@H](CCC(=O)O)C(=O)N[C@@H]([C@@H](C)CC)C(=O)N[C@@H](Cc4ccccc4)C(=O)N[C@@H](CCCCN)C(=O)N[C@@H](C)C(=O)N3)NC2=O)C(=O)N[C@@H](CO)C(=O)N[C@@H](CCCNC(=N)N)C(=O)N[C@@H](CCCCN)C(=O)N[C@@H]([C@@H](C)O)C(=O)N[C@@H](CCCNC(=N)N)C(=O)N[C@@H](Cc2c[nH]c3ccccc23)C(=O)N1)C(=O)NCC(=O)N[C@@H](CCCCN)C(=O)O`, for which the IC50 stood at 0.03 µM in assay [1], 0.04 µM in assay [2], 0.02 µM in assay [3] and 0.08 µM in assay [4].
Regarding `CC[C@H](C)[C@H](NC(=O)[C@H](CCC(N)=O)NC(=O)[C@H](Cc1ccc(O)cc1)NC(=O)[C@H](CCCCN)NC(=O)[C@@H]1CSSC[C@@H]2NC(=O)[C@H](CCC(N)=O)NC(=O)[C@H](CC(=O)O)NC(=O)[C@H](CC(N)=O)NC(=O)[C@H](CO)NC(=O)[C@@H]3CCCN3C(=O)[C@H](CC(N)=O)NC(=O)[C@@H]3CSSC[C@H](NC(=O)[C@H](C(C)C)NC(=O)[C@H](CC(C)C)NC(=O)[C@H](CCCCN)NC(=O)[C@H](CO)NC(=O)[C@H](CO)NC(=O)[C@H](CCCCN)NC(=O)[C@H](CSSC[C@H](NC(=O)[C@H](CC(N)=O)NC(=O)[C@@H]4CCCN4C(=O)CN)C(=O)N[C@@H](CC(C)C)C(=O)N[C@@H](CCC(=O)O)C(=O)N[C@@H]([C@@H](C)CC)C(=O)N[C@@H](Cc4ccccc4)C(=O)N[C@@H](CCCCN)C(=O)N[C@@H](C)C(=O)N3)NC2=O)C(=O)N[C@@H](CO)C(=O)N[C@@H](CCCNC(=N)N)C(=O)N[C@@H](CCCCN)C(=O)N[C@@H]([C@@H](C)O)C(=O)N[C@@H](CCCNC(=N)N)C(=O)N[C@@H](Cc2c[nH]c3ccccc23)C(=O)N1)C(=O)NCC(=O)N[C@@H](CCCCN)C(=O)O`, the half-maximal inhibitory concentration (IC50) turned out to be 0.02 µM in assay [1] and 0.03 µM in assay [2].

As usually defined, the IC50 is the concentration at which inhibition is half-maximal.

Values taken from patent US10414808B2 (priority 2012, dated 2019).
